# Article PMC12022044, “Structural basis for saxitoxin congener binding and neutralization by anuran saxiphilins” (2025)
# Chains of the proteins cited; added tags and fusions are not shown. Residues count along the entry.
# UniProt A0A9X9ZA84, 24-854 limits assumed: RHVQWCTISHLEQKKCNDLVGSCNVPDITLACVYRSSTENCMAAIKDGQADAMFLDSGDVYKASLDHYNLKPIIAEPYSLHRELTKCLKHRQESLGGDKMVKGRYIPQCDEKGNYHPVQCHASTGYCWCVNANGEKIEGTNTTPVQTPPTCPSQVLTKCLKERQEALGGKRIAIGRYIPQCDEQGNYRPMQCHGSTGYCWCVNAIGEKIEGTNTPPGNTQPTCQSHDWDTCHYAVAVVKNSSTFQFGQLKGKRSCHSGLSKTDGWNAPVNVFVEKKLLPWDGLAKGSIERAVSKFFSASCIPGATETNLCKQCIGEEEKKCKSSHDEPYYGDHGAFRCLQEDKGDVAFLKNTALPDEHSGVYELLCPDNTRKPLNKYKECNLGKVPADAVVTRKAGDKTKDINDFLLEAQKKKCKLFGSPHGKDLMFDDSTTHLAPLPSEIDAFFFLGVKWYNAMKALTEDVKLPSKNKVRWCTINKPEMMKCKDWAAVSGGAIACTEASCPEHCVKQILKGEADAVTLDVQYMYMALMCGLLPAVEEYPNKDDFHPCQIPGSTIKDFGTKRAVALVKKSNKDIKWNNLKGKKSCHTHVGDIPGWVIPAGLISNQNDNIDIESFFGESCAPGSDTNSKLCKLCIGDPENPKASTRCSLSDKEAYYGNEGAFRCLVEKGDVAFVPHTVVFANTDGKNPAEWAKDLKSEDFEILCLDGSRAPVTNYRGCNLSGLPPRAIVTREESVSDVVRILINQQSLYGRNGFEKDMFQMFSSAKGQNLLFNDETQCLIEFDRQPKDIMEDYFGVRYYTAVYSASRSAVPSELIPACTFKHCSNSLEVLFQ
# pKd: −log10 of the molar value.
# Experiments:
# RcSxph [1] = target: T1, RcSxph (Aquarana catesbeiana, UniProt P31226); assay: Radioligand receptor binding assay (RBA) with [3H]STX, RcSxph; conditions: for RcSxph ΔΔG / pKd: RBA; for RcSxph ΔΔG: ΔΔG = RT ln(Kdtoxin/KdSTX), T = 298 K; for Fig. S2A Mean (normalized signal): normalized to no-toxin point; for pKd: read-out: RcSxph Kd, [3H]STX
# NpSxph [2] = target: T2, NpSxph (Nanorana parkeri, UniProt A0A9X9ZA84); assay: Thermofluor (TF) assay, NpSxph; conditions: for NpSxph ΔΔTm: TmSxph+20µM toxin − TmSxph+20µM STX; for NpSxph ΔTm: ΔTm = TmSxph+20µM toxin − TmSxph
# NpSxph [3] = target: T2, NpSxph; assay: Fluorescence polarization competition (FPc) assay vs F-STX, NpSxph; conditions: for NpSxph ΔΔG / pKd: FPc; for NpSxph ΔΔG: ΔΔG = RT ln(Kdtoxin/KdSTX), T = 298 K
# RcSxph [4] = target: T1, RcSxph; assay: Fluorescence polarization competition (FPc) assay vs F-STX, RcSxph; conditions: for RcSxph ΔΔG / pKd: FPc; for RcSxph ΔΔG: ΔΔG = RT ln(Kdtoxin/KdSTX), T = 298 K
# RcSxph E540A = RcSxph E540A (Aquarana catesbeiana, UniProt P31226, E559A); assay: Radioligand receptor binding assay (RBA) with [3H]STX, RcSxph E540A; conditions: for Mean (raw [3H]STX binding signal): Fig. S2G; for Mean raw [3H]STX binding signal (Fig. S2G): mean of replicates
# RcSxph [5] = target: T1, RcSxph; assay: Thermofluor (TF) assay, RcSxph; conditions: for RcSxph ΔΔTm: TmSxph+20µM toxin − TmSxph+20µM STX; for RcSxph ΔTm: ΔTm = TmSxph+20µM toxin − TmSxph
# NpSxph [6] = target: T2, NpSxph; assay: Radioligand receptor binding assay (RBA) with [3H]STX, NpSxph; conditions: for Mean (normalized [3H]STX binding): Fig. S2D; for Mean (raw [3H]STX binding signal): Fig. S2F; for NpSxph ΔΔG / pKd: RBA; for NpSxph ΔΔG: ΔΔG = RT ln(Kdtoxin/KdSTX), T = 298 K; for pKd: read-out: NpSxph Kd, [3H]STX
Substance,RcSxph ΔΔG (RcSxph [1]),Fig. S2C Mean (raw signal) (RcSxph [1]; Toxin 100 nM),Fig. S2A Mean (normalized signal) (RcSxph [1]; Toxin 100 nM),Fig. S2C Mean (raw signal) (RcSxph [1]; Toxin 1000 nM),Fig. S2A Mean (normalized signal) (RcSxph [1]; Toxin 1000 nM),pKd (RcSxph [1]),NpSxph ΔΔTm (NpSxph [2]),NpSxph ΔTm (NpSxph [2]),NpSxph ΔΔG (NpSxph [3]),RcSxph ΔΔG (RcSxph [4]),Mean raw [3H]STX binding signal (Fig. S2G) (RcSxph E540A; Toxin 1000 nM),RcSxph ΔΔTm (RcSxph [5]),RcSxph ΔTm (RcSxph [5]),Mean (normalized [3H]STX binding) (NpSxph [6]; Toxin (nM) 100),Mean (normalized [3H]STX binding) (NpSxph [6]; Toxin (nM) 1000),Mean (raw [3H]STX binding signal) (NpSxph [6]; Toxin (nM) 100),Mean (raw [3H]STX binding signal) (NpSxph [6]; Toxin (nM) 1000),NpSxph ΔΔG (NpSxph [6]),pKd (NpSxph [6]),other results
gonyautoxin-6,> 3.0 kcal/mol,2748.33,1.034,1647,0.62,< 6.00,-3.0 ± 0.4 °C,0.2 ± 0.2 °C,2.94 kcal/mol,3.04 kcal/mol,72,-2.8 ± 0.4 °C,0.8 ± 0.3 °C,1.049,0.5703,2947,1603,> 3.0 kcal/mol,< 6.00,"Fig. S2C Mean (raw signal) (RcSxph [1]; Toxin 10.00000 nM): 2821; Fig. S2A Mean (normalized signal) (RcSxph [1]; Toxin 10.00000 nM): 1.062; ΔΔGNpSxph (NpSxph [3]; Fig. 2E, relative to STX): 2.940 kcal/mol; pKd (NpSxph [3]; read-out: NpSxph Kd, competition with F-STX): 5.91; ΔΔGRcSxph (RcSxph [4]; Fig. 2E, relative to STX): 3.040 kcal/mol; pKd (RcSxph [4]; read-out: RcSxph Kd, competition with F-STX): 5.82; Mean (raw [3H]STX binding signal) (RcSxph E540A; Toxin (nM) 10.00000): 82.6667; Mean (raw [3H]STX binding signal) (RcSxph E540A; Toxin (nM) 100): 75.6667; RcSxph ΔTm change (in words) (RcSxph [5]; highest tested concentrations (>10 µM)): some minor ΔTm changes"
gonyautoxin-1/4,> 3.0 kcal/mol,2972.4,1.031,2650.6,0.919,< 6.00,-3.3 ± 0.3 °C,-0.1 ± 0.1 °C,> 3.7 kcal/mol,> 3.7 kcal/mol,82,-3.8 ± 0.2 °C,-0.2 ± 0.1 °C,1.031,0.9573,3136.71,2913.29,> 3.0 kcal/mol,< 6.00,Fig. S2C Mean (raw signal) (RcSxph [1]; Toxin 3.00000 nM): 2997.67; Fig. S2A Mean (normalized signal) (RcSxph [1]; Toxin 3.00000 nM): 1.027; Fig. S2C Mean (raw signal) (RcSxph [1]; Toxin 29.99998 nM): 2929.2; Fig. S2A Mean (normalized signal) (RcSxph [1]; Toxin 29.99998 nM): 1.016; Fig. S2C Mean (raw signal) (RcSxph [1]; Toxin 10000 nM): 1526.4; Fig. S2A Mean (normalized signal) (RcSxph [1]; Toxin 10000 nM): 0.529; pKd (NpSxph [3]; read-out: NpSxph affinity): < 5.30; pKd (RcSxph [4]; read-out: RcSxph affinity): < 5.30; Mean (raw [3H]STX binding signal) (RcSxph E540A; Toxin (nM) 3.00000): 80.3333; Mean (raw [3H]STX binding signal) (RcSxph E540A; Toxin (nM) 29.99998): 84.2; Mean raw [3H]STX binding signal (Fig. S2G) (RcSxph E540A; Toxin 100 nM): 91.4; Mean raw [3H]STX binding signal (Fig. S2G) (RcSxph E540A; Toxin 10000 nM): 63.25; Mean (normalized [3H]STX binding) (NpSxph [6]; Toxin (nM) 3.00000): 0.9687; Mean (normalized [3H]STX binding) (NpSxph [6]; Toxin (nM) 29.99998): 1.002; Mean (normalized [3H]STX binding) (NpSxph [6]; Toxin (nM) 10000): 0.6204; Mean (raw [3H]STX binding signal) (NpSxph [6]; Toxin (nM) 3.00000): 2874.33; Mean (raw [3H]STX binding signal) (NpSxph [6]; Toxin (nM) 29.99998): 3032.6; Mean (raw [3H]STX binding signal) (NpSxph [6]; Toxin (nM) 10000): 1885.14
